The results in this text go back to publication PMC11143371, “Universal paramyxovirus vaccine design by stabilizing regions involved in structural transformation of the fusion protein” (2024).

Usually stoichiometry N stands for a count of units in the complex or per binding partner.

The subject of this data set is NiV F ectodomain without GCN4, S470V + A477V, Nipah virus, Q9IH63 27-497. Nature of the data set: SEC. A general note: Size exclusion chromatography separates by hydrodynamic size, large species first.

On to “NiV F ectodomain without GCN4, S470V + A477V S470V | A477V”, for which the stoichiometry N turned out to be 3.
